Measured values from several laboratories, pooled; numbers as filed in NIAID ChemDB.

Shared fields: growth or infection tests; species: Mycobacterium avium complex

Conditions beyond the fields shown may differ between rows. An empty or dashed field is not shown. MIC50, MIC90 and the like: level of inhibition, or share of isolates inhibited.

SMILES,read-out,strain or isolate,value
CCCCN(CCCC)C[C@H](O)c1cc2c(Cl)cc(Cl)cc2c2cc(C(F)(F)F)ccc12,MIC50,24 clinical isolates,8 µg/mL
NC(=S)c1ccnc(SCc2cccc(F)c2)c1,MIC,MY330/88,31 µM
CN[C@@H]1[C@H](O[C@H]2[C@H](O[C@H]3[C@H](O)[C@@H](O)[C@H](N=C(N)N)[C@@H](O)[C@@H]3N=C(N)N)O[C@@H](C)[C@]2(O)C=O)O[C@@H](CO)[C@H](O)[C@H]1O,MBC90,25 isolates,>64 µg/mL
CO[C@H]1/C=C/O[C@@]2(C)Oc3c(C)c(O)c4c(O)c(c5c(c4c3C2=O)NC2(CCN(CC(C)C)CC2)N=5)=NC(=O)/C(C)=C\C=C\[C@H](C)[C@H](O)[C@@H](C)[C@@H](O)[C@@H](C)[C@H](OC(C)=O)[C@@H]1C,MIC90,211 strains,1.53 µg/mL
CN(C)C/C=C(/c1ccc(-c2ccc(Br)cc2)cc1)c1ccc(S(C)(=O)=O)cc1,MIC,-,68 µg/mL
CC[C@H]1OC(=O)[C@H](C)[C@@H](O[C@H]2C[C@@](C)(OC)[C@@H](O)[C@H](C)O2)[C@H](C)[C@@H](O[C@@H]2O[C@H](C)C[C@H](N(C)C)[C@H]2O)[C@](C)(OC)C[C@@H](C)C(=O)[C@H](C)[C@@H](O)[C@]1(C)O,MIC,LV-2,2 µg/mL
CN(C)CC=C(c1ccccc1)c1ccc(-c2ccc(Br)cc2)cc1,MIC,-,40 µg/mL
COc1ccc(C(F)(F)F)cc1NCc1cnc2nc(N)nc(N)c2c1C,MIC,NJ-168 serovar 4,≤0.128 µg/mL
CN1N=C(c2ccncc2)OC1c1ccc(F)cc1,MIC,12592 PI,>20 µg/mL
CC[C@H]1OC(=O)[C@H](C)[C@@H](O[C@H]2C[C@@](C)(OC)[C@@H](OC(C)=O)[C@H](C)O2)[C@H](C)[C@@H](O[C@@H]2O[C@H](C)C[C@H](N(C)C)[C@H]2O)C(C)(O)C[C@@H](C)/C(=N\OCCCC2CCCCC2)[C@H](C)[C@@H](O)[C@]1(C)O,MIC,20045,3.13 µg/mL
Cc1ccc(CSc2cc(C#N)ccn2)cc1,MIC,MY330/88,>1000 µM
CN(C)C/C=C(\c1ccc(Cl)cc1)c1ccc(-c2ccc(Br)cc2)cc1,MIC,-,37.5 µg/mL
COc1ccc(C)c(NCc2cnc3nc(N)nc(N)c3c2C)c1,MIC,NJ-168 serovar 4/6,≤0.128 µg/mL
COc1ccc(C2OC(c3ccncc3)=NN2C)cc1OC,MIC,12592 PI,>20 µg/mL
CC[C@H]1OC(=O)[C@H](C)[C@@H](OC2C[C@@](C)(OC)[C@@H](O)[C@H](C)O2)[C@H](C)[C@@H](O[C@@H]2O[C@H](C)C[C@H](N(C)C)[C@H]2O)C(C)(O)C[C@@H](C)/C(=N\OCCC2CCCCC2)[C@H](C)[C@@H](O)[C@]1(C)O,MIC,20096 (clarithromycin-resistant),50 µg/mL
CC[C@@]1(O)OC(=O)[C@H](C)[C@@H](O[C@H]2C[C@@](C)(OC)[C@@H](O)[C@H](C)O2)[C@H](C)[C@@H](O[C@@H]2O[C@H](C)C[C@H](N(C)C)[C@H]2O)[C@](C)(OC)C[C@@H](C)C(=O)[C@H](C)[C@@H](O)[C@]1(C)O,MIC,LV-2,8 µg/mL
O=C(O)c1cn(C2CC2)c2c(Cl)c(N3C[C@@H]4CCCN[C@@H]4C3)c(F)cc2c1=O,MIC50,101,0.25 µg/mL
Cc1cccc(CSc2cc(C(N)=S)ccn2)c1,MIC,MY330/88,31 µM
COc1cc(OC)cc(N(C)Cc2cnc3nc(N)nc(N)c3c2C)c1,MIC,NJ-168 serovar 4/6,≤0.128 µg/mL
CCCCCCO/N=C1\[C@H](C)CC(C)(O)[C@H](O[C@@H]2O[C@H](C)C[C@H](N(C)C)[C@H]2O)[C@@H](C)[C@H](O[C@H]2C[C@@](C)(OC)[C@@H](OC(C)=O)[C@H](C)O2)[C@@H](C)C(=O)O[C@H](CC)[C@@](C)(O)[C@H](O)[C@H]1C,MIC,20039 (clarithromycin-susceptible),1.56 µg/mL
CCCCNc1nc2c(s1)c1c(O)c3c(O)c(C)c4c(c32)C(=O)[C@@](C)(O/C=C/[C@H](OC)[C@@H](C)[C@@H](OC(C)=O)[C@H](C)[C@H](O)[C@H](C)[C@@H](O)[C@@H](C)/C=C/C=C(/C)C(=O)N1)O4,MIC50,20 strains,8 µg/mL
N#Cc1ccnc(SCc2ccccc2Cl)c1,MIC,MY330/88,>750 µM
CC(=O)NC[C@H]1CN(c2ccc(N3CCN(Cc4ccc([N+](=O)[O-])s4)CC3)c(F)c2)C(=O)O1,Geometric mean MIC,31 isolates,0.217 µg/mL
NC1=C(Cl)C(=O)c2ccccc2C1=O,MIC,5 clinical isolates,>16 µg/mL
CN1N=C(c2ccncc2)OC1c1ccccc1,MIC,12592 PI,>20 µg/mL
CC[C@H]1OC(=O)[C@H](C)[C@@H](O[C@H]2C[C@@](C)(OC)[C@@H](O)[C@H](C)O2)[C@H](C)[C@@H](O[C@@H]2O[C@H](C)C[C@H](N(C)C)[C@H]2O)[C@](C)(OC)C[C@@H](C)C(=O)[C@H](C)[C@@H](O)[C@]1(C)O,MIC50,20 strains,2 µg/mL
CN(C)CC=C(c1ccc(Br)cc1)c1ccc(-c2ccc(Br)cc2)cc1,MIC,-,34 µg/mL
OC[C@H]1O[C@H](CSc2ccccc2)[C@@H](O)[C@@H]1O,MIC,3 strains,>64 µg/mL
Cc1ccc(/C(=C\CN(C)C)c2ccc(-c3ccc(Br)cc3)cc2)cc1,MIC,-,79 µg/mL
CC[C@H]1OC(=O)[C@H](C)[C@@H](O[C@H]2C[C@@](C)(OC)[C@@H](OC(C)=O)[C@H](C)O2)[C@H](C)[C@@H](O[C@@H]2O[C@H](C)C[C@H](N(C)C)[C@H]2OC(=O)NNCc2ccc([N+](=O)[O-])cc2)C(C)(O)C[C@@H](C)/C(=N\OCCCC2CCCCC2)[C@H](C)[C@@H](O)[C@]1(C)O,MIC,20039 (clarithromycin-susceptible),1.56 µg/mL
N#Cc1ccnc(SCc2c(F)cccc2Cl)c1,MIC,MY330/88,>500 µM
CC[C@H]1OC(=O)[C@H](C)[C@@H](OC2C[C@@](C)(OC)[C@@H](O)[C@H](C)O2)[C@H](C)[C@@H](O[C@@H]2O[C@H](C)C[C@H](N(C)C)[C@H]2O)C(C)(O)C[C@@H](C)/C(=N\OCc2ccccc2)[C@H](C)[C@@H](O)[C@]1(C)O,MIC,20039 (clarithromycin-susceptible),3.13 µg/mL
CCCCCCC(C)c1ccc2c(c1)C(=O)c1nc3ccncc3c(=O)n1-2,MIC,19075,0.06 µg/mL
NC[C@@H]1O[C@H](O[C@H]2[C@@H](O)[C@H](O[C@@H]3[C@@H](O)[C@H](N)C[C@H](N)[C@H]3O[C@H]3O[C@H](CN)[C@@H](O)[C@H](O)[C@H]3N)O[C@@H]2CO)[C@H](N)[C@@H](O)[C@@H]1O,MBC,ATCC 35718,>64 µg/mL
NC(=S)c1ccnc(SCc2ccc(F)cc2)c1,MIC,MY330/88,31 µM
O[C@H](c1cc2ccc(C(F)(F)F)cc2c2cc(C(F)(F)F)ccc12)[C@H]1CCCCN1,MIC50,24 clinical isolates,4 µg/mL
CN1N=C(c2ccncc2)OC1c1cccc(F)c1,MIC,12592 PI,>20 µg/mL
CCCCN(CCCC)C[C@@H](O)c1cc2c(Cl)cc(Cl)cc2c2cc(C(F)(F)F)ccc12,MIC,101 (clarithromycin-resistant),8 µg/mL
CN1N=C(c2ccncc2)OC1c1ccc(Cl)cc1,MIC,12592 PI,>20 µg/mL
COc1cc(NC(C)CSCCN)c2nccc(C)c2c1Oc1cccc(C(F)(F)F)c1,MIC,5 clinical isolates,>16 µg/mL
CN1N=C(c2ccncc2)OC1c1ccc(Cl)cc1Cl,MIC,12592 PI,>20 µg/mL
CN(C)C/C=C(/c1ccccc1)c1ccc(-c2ccc(Br)cc2)cc1,MIC,-,40 µg/mL

For reference, 3 entries again:

SMILES | read-out | strain or isolate | value
CN(C)CC=C(c1ccc(Br)cc1)c1ccc(-c2ccc(Br)cc2)cc1 | MIC | - | 34 µg/mL
CCCCCCC(C)c1ccc2c(c1)C(=O)c1nc3ccncc3c(=O)n1-2 | MIC | 19075 | 0.06 µg/mL
O=C(O)c1cn(C2CC2)c2c(Cl)c(N3C[C@@H]4CCCN[C@@H]4C3)c(F)cc2c1=O | MIC50 | 101 | 0.25 µg/mL